A mixed list of measured activities; the numbers were collected in NIAID ChemDB.

Shared fields: growth or infection tests; agent: HIV-1; endpoint: fold resistance

Conditions beyond the fields shown may differ between rows.

| SMILES | mutations | strain or isolate | method | cells | result |
|---|---|---|---|---|---|
| Cc1cc(S(N)(=O)=O)ccc1NC(=O)COc1ccc(Cl)cc1C(=O)c1cccc(C#N)n1 | RT-P236L | HXB2 | β-galactosidase | HeLa + HELA CD4+ | ~1 |
| CC(C)=CCOc1cc(NC(=S)c2ccsc2C)ccc1Cl | RT-Y181C | UC040-R (RT-Y181C) | cytopathic effect / XTT | CEM + CEM-SS | 20 |
| Cc1cc(S(N)(=O)=O)ccc1NC(=O)COc1ccc(Cl)cc1C(=O)c1cc(F)cc(C#N)c1 | RT-V108I | HXB2 | β-galactosidase | HeLa + HELA CD4+ | ~1 |
| CCc1c(Sc2cc(C)cc(C)c2)n(COCc2ccccc2)c(=O)[nH]c1=O | RT-Y181C | IIIB | syncytia | CEM | 80 |
| CC(C)=CCN1Cc2cccc3[nH]c(=O)n(c23)CC1C | RT-Y181C K101E | UC10-resistant (RT Y181C K101E) | cytopathic effect / XTT | CEM + CEM-SS | >350 |
| CCC(=O)c1ccc(F)c([C@@H]2C[C@@H]2NC(=O)Nc2ccc(C#N)cn2)c1O | NNRTI-resistant (RT V179F) | LAI | β-galactosidase / luminescence | TZM-bl | 0.1 |
| CCc1c(Sc2ccccc2)n(COCc2ccccc2)c(=O)[nH]c1=O | RT-Y181I | IIIB | syncytia | CEM | 175 |
| C/C=C/CSc1cc(NC(=S)c2ccsc2C)ccc1Cl | RT-D67N K70R Y181C T215Y K219Q | 4XAZT+Y181C (RT D67N K70R Y181C T215Y K219Q) | p24 | CEM + CEM-SS | 2.5 |
| CC(C)c1c(Sc2ccccc2)n(COCCO)c(=S)[nH]c1=O | RT-E138K | IIIB | syncytia | CEM | 0.75 |
| CS(=O)(=O)Nc1ccc(NC(=O)COc2ccc(Cl)cc2C(=O)c2ccccc2)cc1 | RT-Y181C | Nevirapine-resistant (RT Y181C) | cytopathic effect / propidium iodide | MT-4 | ~10 |
| CCOCn1c(Sc2cc(C)cc(C)c2)c(CC)c(=O)[nH]c1=O | Nevirapine resistant (RT Y181C) | IIIB | syncytia | CEM | 22.5 |
| Cc1ccc(C2CC2)c(-c2ccc3c(c2)CCCO3)c1[C@H](OC(C)(C)C)C(=O)O | NRTI/NNRTI resistant K103N/Y181C | NL4-3 | luminescence | MT-4 | 1 |
| Cc1cc(S(N)(=O)=O)ccc1NC(=O)COc1ccc(Cl)cc1C(=O)c1cc(F)cc(F)c1 | RT-P225H | HXB2 | β-galactosidase | HeLa + HELA CD4+ | ~1 |
| O=C1Nc2ccc(F)c(F)c2[C@@](C#CC2CC2)(C(F)(F)F)N1 | RT-K103N P225H | - | - | - | 38.9 |
| CC(C)=CCOc1cc(NC(=S)c2ccoc2C)ccc1Cl | RT-Y181C | Diphenyl sulfone-resistant (RT-Y181C) | cytopathic effect / XTT | CEM + CEM-SS | 90 |
| Cc1ccc(C2CC2)c(-c2ccc3c(c2C)CCCO3)c1[C@H](OC(C)(C)C)C(=O)O | PI-resistant ARP-11807 (L33F/I47A/L63P/A71V/V82A) | NL4-3 | luminescence | MT-4 | 1 |
| O=C1Nc2ccc(Cl)cc2[C@@](/C=C/C2CC2)(C(F)(F)F)N1 | RT-Y181C | - | - | - | <6 |

A second listing of 2 rows from above:

SMILES | mutations | strain or isolate | method | cells | result
CCc1c(Sc2cc(C)cc(C)c2)n(COCc2ccccc2)c(=O)[nH]c1=O | RT-Y181C | IIIB | syncytia | CEM | 80
CCOCn1c(Sc2cc(C)cc(C)c2)c(CC)c(=O)[nH]c1=O | Nevirapine resistant (RT Y181C) | IIIB | syncytia | CEM | 22.5

Fold resistance: result on the changed form divided by that on wild type. An empty or dashed field is not shown.